Results of unrelated studies side by side (data: NIAID ChemDB).

Common to all: whole-cell or culture tests; agent: Human cytomegalovirus; method: virus yield; measure: EC50

Rows are shuffled and stem from different studies.

structure,cells,strain or isolate,result
CCCC(C)Nc1ccc(Oc2ccc(O)cc2)cc1,,GDGRP53 (ganciclovir-resistant),0.15 µM
Nc1nc2c(ncn2COC(CO)CO)c(=O)[nH]1,HFF,2916 (bdcrb maribavir-resistant),1.5 µM
CCC(C)Nc1ccc(Oc2ccc(OC)cc2)cc1,,,58 µM
OC[C@H]1O[C@@H](n2c(Br)nc3cc(Cl)c(Cl)cc32)[C@H](O)[C@@H]1O,HFF,2916 (bdcrb maribavir-resistant),0.38 µM
CC(C)Nc1nc2cc(Cl)c(Cl)cc2n1[C@H]1O[C@@H](CO)[C@H](O)[C@@H]1O,HFF,TOWNE,<0.3 µM
O=C(Nc1ccc(NC(=S)NC(CO)c2ccccc2)cc1)c1ccccc1F,HFF,,10 µg/mL
Oc1ccc(Oc2ccc(NC3CCCCC3)cc2)cc1,,,3.6 µM
OC[C@H]1O[C@@H](n2c(Br)nc3cc(Cl)c(Cl)cc32)[C@H](O)[C@@H]1O,HFF,AD169,<2 µM
OC[C@@H]1O[C@H](n2c(Br)nc3cc(Cl)c(Cl)cc32)[C@@H](O)[C@H]1O,MRC-5,AD169,0.5 µM
CCC(C)Nc1ccc(Oc2ccccc2)cc1,,,>100 µM
Nc1nc2c(ncn2COC(CO)CO)c(=O)[nH]1,,TOWNE,<0.4 µM
OC[C@H]1O[C@@H](n2c(Br)nc3cc(Cl)c(Cl)cc32)[C@H](O)[C@@H]1O,MRC-5,,0.08 µM
Oc1ccc(Oc2ccc(NC3CCCCCC3)cc2)cc1,,,4.1 µM
OC[C@H]1O[C@@H](n2c(Cl)nc3cc(Cl)c(Cl)cc32)[C@H](O)[C@@H]1O,,D10 (D341E),<7.9 µM
CC(C)Nc1nc2cc(Cl)c(Cl)cc2n1[C@H]1O[C@@H](CO)[C@H](O)[C@@H]1O,HFF,AD169,0.19 µM

Blank or dashed fields: not listed here. ECn is the concentration giving n% inhibition of infection, replication or growth.